# Test results published in PMC9312377.
# pEC50: −log10 of the molar value. “And” between values parts separate entries of the source, which are not always exact repeats. Identical values can stand only once.
# Assays:
# [1] = tested on: recombinant B/Maryland/1/1959 virus E23K; conditions: E23K in recombinant B/Maryland/1/1959 virus; cited from earlier work
# [2] = target: A(H3N2) polymerase complex PA E23K (Influenza A virus, UniProt P31343, E23K, cells depend on it); test: Minireplicon luciferase reporter assay, BXA susceptibility; conditions: 5 nM BXA; E23K complex, A(H3N2); not statistically significant
# [3] = tested on: A(H1N1)pdm09 polymerase complex PA E23K; test: as above; conditions: 5 nM BXA; E23G/K complexes, A(H1N1)pdm09
# [4] = target: A(H1N1)pdm09 polymerase complex PA E23K+I38T (Influenza A virus, UniProt C3W5S0, E23K/I38T); test: as above; conditions: 5 nM BXA; E23K+I38T complex, A(H1N1)pdm09
# [5] = target: A(H3N2) polymerase complex PA E23K+I38T (Influenza A virus, UniProt P31343, E23K/I38T, cells depend on it); test: as above; conditions: 5 nM BXA; E23K+I38T complex, A(H3N2)
# [6] = target: A(H3N2) polymerase complex PA E23G (Influenza A virus, UniProt P31343, E23G, cells depend on it); test: as above; conditions: 5 nM BXA; E23G complex, A(H3N2)
# [7] = tested on: A(H1N1)pdm09 polymerase complex PA WT; test: as above; conditions: 5 nM BXA; WT complexes of A(H1N1)pdm09 and A(H3N2); normalized to I38T complexes
# [8] = target: recombinant A(H1N1)pdm09 PAN WT (Influenza A virus, UniProt C3W5S0, DEL51-57/DEL61-72/E59G); test: Modified thermofluor assay, BXA-rPAN thermal stabilization; conditions: for SYPRO Orange signal: 37uM BXA
# [9] = tested on: rg-A/California/04/2009 (H1N1)pdm09 PA WT; conditions: read-out: BXA susceptibility in the plaque reduction assay (EC50 ± SEM), MDCK cells, 72 or 96 hpi
# [10] = tested on: recombinant A(H3N2) PAN WT
smiles,measurement,setting,value
O=C1c2c(O)c(=O)ccn2N([C@@H]2c3ccccc3SCc3c2ccc(F)c3F)[C@@H]2COCCN12,EC50 increase,[1],no EC50 increase
same,polymerase complex activity inhibited,[2],14%
same,polymerase complex activity inhibited,[3],40–74%
same,polymerase complex inhibition by BXA,[4],approximately 35%
same,BXA susceptibility of polymerase complex,[5],not BXA susceptible
same,polymerase complex activity inhibited,[6],57%
same,polymerase complex activity inhibited,[7],87%–98%
same,SYPRO Orange signal,[8]; 30 °C,1753.75 RFU and 1760.28 RFU and 2022.58 RFU
same,SYPRO Orange signal,[8]; 31 °C,2371.15 RFU and 1897.11 RFU and 2285.51 RFU
same,SYPRO Orange signal,[8]; 32 °C,2440.89 RFU and 1837.11 RFU and 2903.6 RFU
same,SYPRO Orange signal,[8]; 33 °C,2436.67 RFU and 1503.86 RFU and 2554.78 RFU
same,SYPRO Orange signal,[8]; 34 °C,3025.03 RFU and 2118.09 RFU and 2577.12 RFU
same,SYPRO Orange signal,[8]; 35 °C,2642.63 RFU and 1783.19 RFU and 2860.1 RFU
same,SYPRO Orange signal,[8]; 36 °C,2913.9 RFU and 2082.18 RFU and 2803.49 RFU
same,SYPRO Orange signal,[8]; 37 °C,3236.84 RFU and 2104.5 RFU and 2929.48 RFU
same,SYPRO Orange signal,[8]; 38 °C,2786.33 RFU and 2017.83 RFU and 2405.79 RFU
same,SYPRO Orange signal,[8]; 39 °C,3012.32 RFU and 2483.05 RFU and 2456.19 RFU
same,SYPRO Orange signal,[8]; 40 °C,2840.78 RFU and 2236.17 RFU and 2409.43 RFU
same,SYPRO Orange signal,[8]; 41 °C,3207.14 RFU and 2468.41 RFU and 2503.98 RFU
same,SYPRO Orange signal,[8]; 42 °C,2897.59 RFU and 2725.24 RFU and 2700.57 RFU
same,SYPRO Orange signal,[8]; 43 °C,2520.24 RFU and 2449.69 RFU and 2751.22 RFU
same,SYPRO Orange signal,[8]; 44 °C,3070.47 RFU and 2413.57 RFU and 2637.47 RFU
same,SYPRO Orange signal,[8]; 45 °C,3181.83 RFU and 2425.89 RFU and 2692.02 RFU
same,SYPRO Orange signal,[8]; 46 °C,3084.92 RFU and 2556.84 RFU and 2828.37 RFU
same,SYPRO Orange signal,[8]; 47 °C,2959.11 RFU and 2257.08 RFU and 2506.52 RFU
same,SYPRO Orange signal,[8]; 48 °C,2963.45 RFU and 2232.34 RFU and 2811.86 RFU
same,SYPRO Orange signal,[8]; 49 °C,2781.89 RFU and 2722.39 RFU and 2596.53 RFU
same,SYPRO Orange signal,[8]; 50 °C,2678.55 RFU and 2494.79 RFU and 2800.46 RFU
same,SYPRO Orange signal,[8]; 51 °C,2761.09 RFU and 2070.69 RFU and 2605.89 RFU
same,SYPRO Orange signal,[8]; 52 °C,2685.52 RFU and 2125.76 RFU and 2755.56 RFU
same,SYPRO Orange signal,[8]; 53 °C,2774.4 RFU and 2219.89 RFU and 2372.74 RFU
same,SYPRO Orange signal,[8]; 54 °C,2307.32 RFU and 2130.92 RFU and 2680.32 RFU
same,SYPRO Orange signal,[8]; 55 °C,2191.95 RFU and 2444.53 RFU and 2693.28 RFU
same,SYPRO Orange signal,[8]; 56 °C,2466.96 RFU and 2430.89 RFU and 2675.52 RFU
same,SYPRO Orange signal,[8]; 57 °C,2397.83 RFU and 1832.31 RFU and 2604.85 RFU
same,SYPRO Orange signal,[8]; 58 °C,2708.56 RFU and 2251.8 RFU and 3081.07 RFU
same,SYPRO Orange signal,[8]; 59 °C,3014.84 RFU and 2388.34 RFU and 3415.04 RFU
same,SYPRO Orange signal,[8]; 60 °C,3117.69 RFU and 2758.07 RFU and 3511.11 RFU
same,SYPRO Orange signal,[8]; 61 °C,2800.76 RFU and 2508.13 RFU and 3306.67 RFU
same,SYPRO Orange signal,[8]; 62 °C,3214.24 RFU and 3013.25 RFU and 3808.58 RFU
same,SYPRO Orange signal,[8]; 63 °C,3249.1 RFU and 2839.07 RFU and 3696.82 RFU
same,SYPRO Orange signal,[8]; 64 °C,3620.74 RFU and 3021.69 RFU and 4263.1 RFU
same,SYPRO Orange signal,[8]; 65 °C,3734.94 RFU and 3214.44 RFU and 4629.39 RFU
same,SYPRO Orange signal,[8]; 66 °C,4138.49 RFU and 3406.16 RFU and 4816.32 RFU
same,Tm (°C) with BXA,"[8]; A(H1N1)pdm09 PAN WT 2 μM, BXA 37 μM",80 °C and 80.3 ± 0.1 °C and 80.3 °C
same,ΔTm (°C),"[8]; A(H1N1)pdm09 PAN WT, DMSO vs BXA 37 μM",25 °C and 25.3 ± 0.2 °C
same,SYPRO Orange signal,"[8]; Panel A, WT, 67 °C",4647.68 RFU and 4402.97 RFU and 5149.5 RFU
same,SYPRO Orange signal,"[8]; Panel A, WT, 68 °C",4527.01 RFU and 4382.62 RFU and 5531.66 RFU
same,SYPRO Orange signal,"[8]; Panel A, WT, 69 °C",5116.8 RFU and 4634.86 RFU and 6091.6 RFU
same,SYPRO Orange signal,"[8]; Panel A, WT, 70 °C",5420.44 RFU and 5215.61 RFU and 6274.77 RFU
same,SYPRO Orange signal,"[8]; Panel A, WT, 71 °C",5273.55 RFU and 5760.03 RFU and 6306.18 RFU
same,SYPRO Orange signal,"[8]; Panel A, WT, 72 °C",5577.44 RFU and 5512.91 RFU and 6490.41 RFU
same,SYPRO Orange signal,"[8]; Panel A, WT, 73 °C",6396.49 RFU and 6100.77 RFU and 7025.81 RFU
same,SYPRO Orange signal,"[8]; Panel A, WT, 74 °C",6997.14 RFU and 7090.59 RFU and 7843.32 RFU
same,SYPRO Orange signal,"[8]; Panel A, WT, 75 °C",8250.92 RFU and 8482.91 RFU and 9078.46 RFU
same,SYPRO Orange signal,"[8]; Panel A, WT, 76 °C",10981.3 RFU and 11343.3 RFU and 12382.8 RFU
same,SYPRO Orange signal,"[8]; Panel A, WT, 77 °C",15582.4 RFU and 15551.3 RFU and 16436.3 RFU
same,SYPRO Orange signal,"[8]; Panel A, WT, 78 °C",22928.9 RFU and 22799.3 RFU and 24313 RFU
same,SYPRO Orange signal,"[8]; Panel A, WT, 79 °C",35114.6 RFU and 34674.5 RFU and 36154.3 RFU
same,SYPRO Orange signal,"[8]; Panel A, WT, 80 °C",54814 RFU and 52955.1 RFU and 55956.1 RFU
same,SYPRO Orange signal,"[8]; Panel A, WT, 81 °C",84030 RFU and 81254.2 RFU and 85478.8 RFU
same,SYPRO Orange signal,"[8]; Panel A, WT, 82 °C",120714 RFU and 116787 RFU and 123501 RFU
same,SYPRO Orange signal,"[8]; Panel A, WT, 83 °C",152752 RFU and 149288 RFU and 158637 RFU
same,SYPRO Orange signal,"[8]; Panel A, WT, 84 °C",170367 RFU and 168514 RFU and 179263 RFU
same,SYPRO Orange signal,"[8]; Panel A, WT, 85 °C",174240 RFU and 172586 RFU and 183988 RFU
same,SYPRO Orange signal,"[8]; Panel A, WT, 86 °C",171802 RFU and 170329 RFU and 181647 RFU
same,SYPRO Orange signal,"[8]; Panel A, WT, 87 °C",168135 RFU and 167081 RFU and 177962 RFU
same,SYPRO Orange signal,"[8]; Panel A, WT, 88 °C",163762 RFU and 163902 RFU and 173226 RFU
same,SYPRO Orange signal,"[8]; Panel A, WT, 89 °C",159543 RFU and 159134 RFU and 167979 RFU
same,SYPRO Orange signal,"[8]; Panel A, WT, 90 °C",154890 RFU and 154894 RFU and 163580 RFU
same,SYPRO Orange signal,"[8]; Panel A, WT, 91 °C",150308 RFU and 150229 RFU and 157461 RFU
same,SYPRO Orange signal,"[8]; Panel A, WT, 92 °C",145884 RFU and 145939 RFU and 150858 RFU
same,SYPRO Orange signal,"[8]; Panel A, WT, 93 °C",141347 RFU and 141563 RFU and 145119 RFU
same,SYPRO Orange signal,"[8]; Panel A, WT, 94 °C",137119 RFU and 136440 RFU and 140604 RFU
same,SYPRO Orange signal,"[8]; Panel A, WT, 95 °C",132430 RFU and 131876 RFU and 135323 RFU
same,SYPRO Orange signal,"[8]; Panel A, WT, 96 °C",128202 RFU and 127247 RFU and 128149 RFU
same,SYPRO Orange signal,"[8]; Panel A, WT, 97 °C",123762 RFU and 121687 RFU and 121268 RFU
same,SYPRO Orange signal,"[8]; Panel A, WT, 98 °C",120477 RFU and 117521 RFU and 115008 RFU
same,SYPRO Orange signal,"[8]; Panel A, WT, 99 °C",115966 RFU and 112142 RFU and 107473 RFU
same,pEC50,[9],9.66
same,Tm (°C) with BXA,"[10]; A(H3N2) PAN WT 2 μM, BXA 37 μM",79 °C and 79.0 ± 0.1 °C
same,ΔTm (°C),"[10]; A(H3N2) PAN WT, DMSO vs BXA 37 μM",25.0 ± 0.3 °C
